Laboratory results: PubChem BioAssay AID504761 (Drosophila RNAi Screening Center, 2011)
The deposit covers about 22,000 reagents; this is an unselected part of those that have a named target and a result. Over the whole deposit, 116 (0.52%) are marked active. 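Calls depend on retest data that are not deposited; infection was ranked per plate without normalising between plates; the unit of the infection score is not given.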 Names joined by + are all predicted targets of the reagent. Further read-outs or replicates are left out here. No sequences are given here. The record does not give: the amount of reagent, the time to read-out.

- Assay: 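Insect host genes that dengue virus relies on to spread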 (primary screen)
- Cells: D.Mel-2 cells from Drosophila
- Knock-down reagent: long dsRNA against Drosophila genes
- Conditions: infection with dengue virus type 2; dose and infection time not stated
- Measurement: 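Per well on two replicate plates, imaging gave the percent of cells positive for viral envelope protein, ranked by infection, and a nuclear count of cells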
- Reading the numbers: infection score: higher = more virus-infected cells
- Active means: 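Very low infection ranking in both replicate wells (chance probability at most 0.065), then a retest showing infection dropped 1.5-fold or more at p below 0.05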
- Calls: active = confirmed: knock-down lowers infection; inactive = not picked or not confirmed

| Target gene | dsRNA | infection score, replicate 1 | outcome |
| --- | --- | --- | --- |
| ckd | DRSC08418 | 1.52 | inactive |
| dia | DRSC03519 | 3.71 | inactive |
| dia | DRSC24127 | 1.19 | inactive |
| CG13978 | DRSC14720 | 4.84 | inactive |
| fsd | DRSC06166 | 6.27 | inactive |
| hay | DRSC11354 | 16 | inactive |
| jim | DRSC11889 | 3.19 | inactive |
| jim | DRSC23829 | 3.58 | inactive |
| Sys1 | DRSC14372 | 13.1 | inactive |
| Mayo | DRSC14300 | 8.87 | inactive |
| out | DRSC19347 | 8.68 | inactive |
| out | DRSC28913 | 9.41 | inactive |
| VhaAC45 | DRSC07058 | 3.86 | inactive |
| CG1695 | DRSC20538 | 4.72 | inactive |
| CG1695 | DRSC25561 | 3.93 | inactive |
| Sox15 | DRSC07555 | 7.79 | inactive |
| Sox15 | DRSC28528 | 17.3 | inactive |
| C15 | DRSC13495 | 4.58 | inactive |
| Fis1 | DRSC07772 | 0.33 | inactive |
| Dph4 | DRSC12318 | 2.74 | inactive |
| Spn28Da | DRSC02162 | 4.92 | inactive |
| CG8860 | DRSC07291 | 10.6 | inactive |
| CG8860 | DRSC25286 | 6.46 | inactive |
| CG17564 | DRSC02626 | 1.22 | inactive |
| CG17564 | DRSC26542 | 6.3 | inactive |
| CG3176 + CR18166 + CG32817 | DRSC17271 | 0.15 | active |
| CG3176 + CR18166 + CG32817 | DRSC17282 | 0.52 | inactive |
| CG3176 + CR18166 + CG32817 | DRSC18288 | 2.42 | inactive |
| CG3176 + CR18166 + CG32817 | DRSC28432 | 12.6 | inactive |
| CG34050 (retired record) | DRSC09067 | 14.2 | inactive |
| CG34050 (retired record) | DRSC26231 | 14 | inactive |
| rdgB | DRSC20365 | 4.2 | inactive |
| rdgB | DRSC27840 | 10.6 | inactive |
| cact | DRSC03501 | 14.4 | inactive |
| cact | DRSC28422 | 6.07 | inactive |
| CG32198 | DRSC09553 | 0.94 | inactive |
| CG32198 | DRSC27630 | 5.12 | inactive |
| Clic | DRSC19364 | 14 | inactive |
| CG42820 + CG42819 | DRSC02264 | 4.13 | inactive |
| CG42820 + CG42819 | DRSC02265 | 4.63 | inactive |
| CG4080 | DRSC10398 | 4.95 | inactive |
| Rbcn-3B | DRSC18574 | 2.13 | inactive |
| pch2 | DRSC14368 | 8.99 | inactive |
| MED20 | DRSC03463 | 2.65 | inactive |
| tzn | DRSC11755 | 4.78 | inactive |
| CG1602 | DRSC06601 | 15.6 | inactive |
| upd3 | DRSC19636 | 10.1 | inactive |
| upd3 | DRSC19968 | 22 | inactive |
| upd3 | DRSC22169 | 3.55 | inactive |
| CG13001 | DRSC24970 | 4.45 | inactive |
| alpha-Cat | DRSC11917 | 17.8 | inactive |
| CG10912 | DRSC06009 | 4.44 | inactive |
| CG10912 | DRSC25420 | 1.49 | inactive |
| CG7766 | DRSC18424 | 0.45 | inactive |
| e(y)2b | DRSC12556 | 12.5 | inactive |
| Vha68-3 | DRSC02809 | 11.2 | inactive |
| Vha68-3 | DRSC25742 | 2.77 | inactive |
| retinin | DRSC09940 | 3.49 | inactive |
| retinin | DRSC25734 | 4.23 | inactive |

Ordered by “infection score, replicate 1” (ascending): 3 of the entries above
| Target gene | dsRNA | infection score, replicate 1 | outcome |
| --- | --- | --- | --- |
| CG17564 | DRSC02626 | 1.22 | inactive |
| CG17564 | DRSC26542 | 6.3 | inactive |
| CG8860 | DRSC25286 | 6.46 | inactive |
